Experimental data taken from patent US20090209606A1 (priority 2004, published 2009).

How the values were obtained:
[1] = system: SU-DHL-1 cells; test: MTT cytotoxicity assay, cell viability after three days exposure; format: cell-based
[2] = system: SU-DHL-1 cells; test: Quantitative PCR (Q-PCR) of transcripts in drug-treated cells; format: cell-based
[3] = system: PARP in SU-DHL-1 cells; test: PARP cleavage after brief exposure and drug washout; format: cell-based; conditions: 30 minutes exposure, further 8 hours, equitoxic concentrations
[4] = system: Ape-1 base excision repair enzyme; test: In vitro cell based Ape-1 assay (MTT cytotoxicity with or without methoxyamine); conditions: 6 mM methoxyamine, 72 hrs
[5] = system: SU-DHL-1 cells; test: Western blot / immunoblot of apoptotic proteins; format: cell-based; conditions: SU-DHL-1, 20 hours, equitoxic concentrations
[6] = system: alkylguanyl transferase (AGT) in SU-DHL-1 cells; conditions: 50 μM O6-benzylguanine, 72 hrs
[7] = SU-DHL-1, equitoxic concentrations

## NP(=O)(O)N(CCCl)CCCl
[1]; read-out: Ave IC50, SU-DHL-1, three days exposure
  IC50: 21.3 µM
[1]; read-out: Ave IC90, SU-DHL-1, three days exposure
  IC90: 33 µM
[1]; read-out: IC90 concentration, SU-DHL-1, concentration used for gene expression profiling
  IC90: 50 µM
[2]; SU-DHL-1, 8 hours, equitoxic concentrations
  induction of p21 and NOXA mRNA: much lower extent
[2]; [7]
  Fen1 mRNA regulation: upregulated this gene to the same level
  down-regulation of mRNA expression of PLK-1, Aurora Kinases A and B, cyclin B1: minor effect
  up-regulation of Exo1 expression: 1.5 fold
[3]
  PARP cleavage: No PARP cleavage
[4]
  change of IC50 with methoxyamine addition: only changed slightly
[5]
  PARP protein expression: no changes
[6]
  effect of O6-benzylguanine on cytotoxic potency: significantly sensitizes

Read-outs that look alike come from different tables or passages of the source.
